The source of these data is US11052151B2, “Diagnosis and treatment of autism spectrum disorder” (California Institute of Technology, priority 2012, dated 2021).

Residues, ends and D or L forms follow the SMILES beside them.

This data set is described as follows: Metabolomics screening (GC/LC-MS) of sera after B. fragilis treatment of MIA offspring. Type of data set: in vivo, mice. The note with it: poly(I:C)+B. fragilis offspring relative to saline controls, p<0.05.
With `CCCCCCCC(=O)O[C@H](CC(=O)O)C[N+](C)(C)C` [octanoylcarnitine], the “I:C-Bfrag / CON (fold change of serum metabolite)” value is 0.69.

Consider `CCCCCCCCCCCC(=O)O` [laurate (12:0)], for which the “I:C-Bfrag / CON (fold change of serum metabolite)” value was determined as 0.85.

`Nc1ccn([C@H]2C[C@H](O)[C@@H](CO)O2)c(=O)n1` [2′-deoxycytidine]: the “I:C-Bfrag / CON (fold change of serum metabolite)” value amounted to 1.32.

In the case of `CCCCCCCCCCCCCCCC(=O)O` [palmitate (16:0)], the “I:C-Bfrag / CON (fold change of serum metabolite)” value turned out to be 0.72.

Take `CCCCCCC(=O)O` [heptanoate (7:0)]: the “I:C-Bfrag / CON (fold change of serum metabolite)” value amounted to 0.81.

On to `CO[C@H]1[C@H](O)[C@@H](O)[C@@H](O)[C@H](O)[C@@H]1O` [pinitol], for which the “I:C-Bfrag / CON (fold change of serum metabolite)” value was found to be 0.61.

On to `CC/C=C\C/C=C\C/C=C\C/C=C\C/C=C\C/C=C\CCC(=O)O` [docosahexaenoate (DHA; 22:6n3)], for which the “I:C-Bfrag / CON (fold change of serum metabolite)” value is reported as 0.77.

On to `CCCCCCCC/C=C\C/C=C\C/C=C\CCCC(=O)O` [mead acid (20:3n9)], for which the “I:C-Bfrag / CON (fold change of serum metabolite)” value was found to be 0.74.

As for `CC(C)[C@H](NC(=O)CN)C(=O)O` [glycylvaline] (H-Gly-Val-OH), the “I:C-Bfrag / CON (fold change of serum metabolite)” value is 0.22.

Take 13-HODE+9-HODE: the “I:C-Bfrag / CON (fold change of serum metabolite)” value is 0.50.
